Counter-ions that a name gives are not always drawn.
Test: Urinary excretion in mice
Format: in vivo, male mice (ddY)
Details: 25 mg/kg, im, single dose, pooled from 4 mice
Procedure: The contents of the vials (No. A) obtained in Example 17 were dissolved in deionized water to form solutions of penicillin compound 1 in a concentration of 25 mg/ml. The solutions were administered in a dose of 25 mg/kg (im) to four male mice (ddY) having an average body weight of 25 g. After given periods of time, the urine was collected from the four mice, and the concentration of the penicillin compound 1 in the urine was determined.
Urine was collected by using a metabolism cage for 3, 6, and 24 hours after administration. The pooled urine was diluted with a 0.067M phosphate buffer (pH 7.0) before assay to 500 times for the 0-3 hour urine, 100 times for the 3-6 hour urine and 10 times for the 6-24 hour urine.
The levels of compound 1 were determined by the thin-layer cup-plate method using Escherichia coli Kp as an indicator microorganism and a standard calibration line was prepared in a 0.067M phosphate buffer (pH 7.0).

CC1(C)S[C@@H]2[C@H](NC(=O)[C@H](NC(=O)c3c[nH]c4nc(N5CCN(C=O)CC5)ncc4c3=O)c3ccc(O)cc3)C(=O)N2[C@H]1C(=O)O [Compound 1, D-α-[5,8-Dihydro-2-(4-formyl-1-piperazinyl)-5-oxopyrido[2,3-d]pyrimidine-6-carboxamido]-p-hydroxybenzyl-penicillin sodium salt]
V: urine volume (0-3 hour): 3.83 mL
V: urine volume (3-6 hour): 2.23 mL
V: urine volume (6-24 hour): 6.67 mL

Source: patent US4103011A, “Novel penicillin compounds and process for preparation thereof” (priority 1976, dated 1978)
